Measured values taken from PMC7144554, “2-(Arylamino)-6-(trifluoromethyl)nicotinic Acid Derivatives: New HIV-1 RT Dual Inhibitors Active on Viral Replication” (Molecules, 2020).

Key:
[1] = test system: K103N RT RNase H function; assay: RNase H activity of mutated RT K103N; type: biochemical, HIV-1; details: vs wt RT
Description: (§1) Amino acid substitutions were introduced into the p66 HIV-1 RT subunit coded in a p6HRT-prot plasmid using the QuikChange protocol (Agilent Technologies Inc., Santa Clara, CA).
(§2) The RT-associated RNase H activity of wt and mutated HIV RTs was measured as described, in 100 µL reaction volume containing 50 mM Tris HCl pH 7.8, 6 mM MgCl2, 1 mM dithiothreitol (DTT), 80 mM KCl, hybrid RNA/DNA (5’-[…]-3’-Fluorescein, 5’-[…]-3’-Dabcyl), and different amounts of enzymes according to a linear range of dose-response curve—20 ng of wt RT; 50 ng K103N RT; 100 ng V108A RT; 4 ng Y181C RT; 100 ng Q475A RT; 100 ng A502F RT. The reaction mixture was incubated for 1 h at 37 °C, the reaction was stopped by addition of EDTA and products were measured with a Victor 3 (Perkin) at 490/528 nm.

[2] = test system: Y181C RT RNase H function; assay: RNase H activity of mutated RT Y181C; type: biochemical, HIV-1; details: vs wt RT
Description: as §1, §2

[3] = test system: V108A RT RNase H function; assay: RNase H activity of mutated RT V108A; type: biochemical, HIV-1; details: vs wt RT
Description: as §1, §2

[4] = Mg2+ coordination, UV spectra; type: physicochemical; details: 100 µM compound, 6 mM MgCl2
V108A RT RDDP activity = type: biochemical, HIV-1; details: IC50 mutated RT / IC50 wt RT

CC(C)c1ccc(O)c(=O)c(O)c1 [BTP, beta-Thujaplicinol, reference compound]
RNase H Fold [1]: 1.2
RNase H Fold [2]: 1.2
RNase H Fold [3]: 1.8

Cc1ccc(Cl)cc1Nc1nc(C(F)(F)F)ccc1C(=O)Oc1ccc(Cl)cc1 [Compound 13]
effect of Mg2+ on UV spectrum [4]: not affected

COc1cc(OC)cc(OC(=O)c2ccc(C(F)(F)F)nc2Nc2cc(Cl)ccc2C)c1 [Compound 21]
RNase H Fold [1]: 3.7
RDDP Fold (V108A RT RDDP activity): 5.1
RNase H Fold [2]: 0.8
RNase H Fold [3]: >6.8
effect of Mg2+ on UV spectrum [4]: not affected

Cc1cccc(NC(=O)c2ccc(C(F)(F)F)nc2Nc2cc(Cl)ccc2C)c1 [Compound 29]
shift in the peak of absorbance in presence of Mg2+ [4]: 17 nm

COc1cc(NC(=O)c2ccc(C(F)(F)F)nc2Nc2cc(Cl)ccc2C)cc(OC)c1 [Compound 34]
effect of Mg2+ on UV spectrum [4]: moderate hyperchromic effect, but not a shift

COc1cc(NC(=O)c2ccc(C(F)(F)F)nc2Nc2cc(Cl)ccc2C)cc(OC)c1OC [Compound 36]
effect of Mg2+ on UV spectrum [4]: not affected

Cc1ccc(Cl)cc1Nc1nc(C(F)(F)F)ccc1C(=O)N1CCN(c2ccc(Cl)c(Cl)c2)CC1 [Compound 52, (2-((5-Chloro-2-methylphenyl)amino)-6-(trifluoromethyl)pyridin-3-yl)(4-(3,4-dichlorophenyl)piperazin-1-yl)methanone]
effect of Mg2+ on UV spectrum [4]: moderate hyperchromic effect, but not a shift
